Results of unrelated studies side by side (data: NIAID ChemDB).

Shared fields: tests on isolated targets

Two numbers with a dash give a range or band.

compound,protein,method,organism,tested at,strain,read-out,result
O=C(Nc1ccc2cn[nH]c2c1)c1cc(NCCN2CCOCC2)c(F)cc1F,Reverse transcriptase,-,Hepatitis B virus,1 µg/mL,-,inhibition,40%
O=[N+]([O-])c1ccc(-c2cnc3ccc4c(C(F)(F)F)cc(C(F)(F)F)nc4n23)cc1,Envelope glycoprotein 2,luciferase / reporter gene,Hepatitis C virus,-,JFH-1,IC50,8.2 µM
NC(=O)c1c(N)sc2c1CCCCC2,RNase H,RNase H / substrate cleavage,Hepatitis B virus,10 µM,gtD,inhibition,>43%
COc1cccc(-c2cc(-c3cc(Cl)cc(Cl)c3)n3nc(C(=O)O)cc3n2)c1,RNA-dependent RNA polymerase,-,Hepatitis C virus,-,-,IC50,>10 µM
C=Cc1ccc(C(NC(=O)[C@@H](NC(=O)OC(C)(C)C)C(C)(C)C)C(=O)Nc2ccccc2C(=O)NS(=O)(=O)c2ccc(C(F)(F)F)cc2)cc1Oc1cc(OC)nc(-c2ccccc2)n1,Nonstructural protein 3/4A,FRET,Hepatitis C virus,-,GT1a,Ki,0.045 µM
CSc1ncc(C(=O)NCCc2ccccn2)c(Nc2ccc3cn[nH]c3c2)n1,Reverse transcription,-,Hepatitis B virus,-,-,IC50,~0.01 µg/mL
Cc1nnc([C@@H]2C[C@@](CC(C)C)(C(=O)O)N(C(=O)c3ccc(C(C)(C)C)cc3)[C@H]2c2nccs2)o1,RNA-dependent RNA polymerase,-,Hepatitis C virus,-,-,IC50,<50 µM
CC[C@@H](C=O)NC(=O)[C@@H]1C[C@@H](OCc2ccccc2)CN1C(=O)[C@@H](NC(=O)CCOc1ccccc1)C(C)C,NS3 protease,-,Hepatitis C virus,-,-,Ki,>100 µM
CC(C)C[C@@]1(C(=O)O)C[C@H](c2nc(Br)ns2)[C@H](c2nccs2)N1C(=O)c1ccc(C(C)(C)C)cc1,RNA-dependent RNA polymerase,-,Hepatitis C virus,-,-,IC50,<50 µM
CNC(=O)c1cnc(SC)nc1Nc1ccc2cn[nH]c2c1,Reverse transcription,-,Hepatitis B virus,-,-,IC50,~0.01 µg/mL
CCOC(=O)c1cc2nc(-c3ccc(F)cc3)cc(-c3ccc(F)cc3)n2n1,RNA-dependent RNA polymerase,-,Hepatitis C virus,-,-,IC50,>10 µM
C[C@H](NC(=O)Nc1cccc(-c2nc(C(=O)O)c(O)c(=O)[nH]2)c1)c1cccc2ccccc12,HCV polymerase,-,Hepatitis C virus,-,-,IC50,<100 µM
CC[C@@H](C=O)NC(=O)[C@@H]1C[C@@H](OC(=O)Nc2ccc(OC)cc2)CN1C(=O)[C@@H](NC(=O)[C@@H](NC(=O)c1cnccn1)C(C)C)C(C)C,NS3 protease,-,Hepatitis C virus,-,-,Ki,1–100 µM
O=C(CCC1CCCC1)Nc1ccsc1-c1nc(C(=O)O)c(O)c(=O)[nH]1,HCV polymerase,-,Hepatitis C virus,-,-,IC50,<25 µM
C=Cc1ccc(C(NC(=O)[C@@H](NC(=O)OC(C)(C)C)C(C)(C)C)C(=O)Nc2cccc(C(=O)NS(=O)(=O)c3ccc(C(F)(F)F)cc3)c2)cc1Oc1cc(OC)nc(-c2ccccc2)n1,Nonstructural protein 3/4A,FRET,Hepatitis C virus,-,GT1a,Ki,0.024 µM
COC(=O)Oc1nsnc1N1CCOCC1,RNase H,RNase H / substrate cleavage,Hepatitis B virus,10 µM,gtH,inhibition,>43%
FC(F)(F)c1cc(C(F)(F)F)c2ccc3ncc(-c4ccc(Cl)cc4)n3c2n1,Envelope glycoprotein 2,luciferase / reporter gene,Hepatitis C virus,-,JFH-1,IC50,11.1 µM
O=C(Nc1cscc1-c1nc(C(=O)O)c(O)c(=O)[nH]1)NS(=O)(=O)c1ccccc1Br,HCV polymerase,-,Hepatitis C virus,-,-,IC50,<25 µM
CC(C)C[C@@]1(C(=O)O)C[C@@H](c2nc3ccccc3s2)[C@H](c2nccs2)N1C(=O)c1ccc(C(C)(C)C)c(Br)c1,RNA-dependent RNA polymerase,-,Hepatitis C virus,-,-,IC50,<50 µM
COC(=O)[C@H](NC(=O)c1cnc(SC)nc1Nc1ccc2cn[nH]c2c1)[C@@H](C)O,Reverse transcription,-,Hepatitis B virus,-,-,IC50,0.01 µg/mL
O=C(O)c1nc(-c2cccc(Cc3ccccc3)c2)[nH]c(=O)c1O,HCV polymerase,-,Hepatitis C virus,-,-,IC50,<100 µM
CSc1ncc(C(=O)NCCO)c(Nc2ccc3[nH]ncc3c2)n1,Reverse transcription,-,Hepatitis B virus,-,-,IC50,~0.01 µg/mL
NCc1cccc(S(=O)(=O)NC(=O)Nc2cscc2-c2nc(C(=O)O)c(O)c(=O)[nH]2)c1,HCV polymerase,-,Hepatitis C virus,-,-,IC50,<25 µM
CSc1ncc(C(=O)NN2CCN(C)CC2)c(Nc2ccc3cn[nH]c3c2)n1,Reverse transcription,-,Hepatitis B virus,-,-,IC50,<1 µg/mL
O=C(Nc1ccc2[nH]ncc2c1)c1cc(NCCCn2ccnc2)c(F)cc1F,Reverse transcriptase,-,Hepatitis B virus,-,-,IC50,0.01–0.1 µg/mL
C=CCCCS(=O)(=O)NC(=O)c1ccc(NC(=O)C(NC(=O)OC(C)(C)C)c2ccc(C=C)c(Oc3cc(OC)nc(-c4ccccc4)n3)c2)cc1,Nonstructural protein 3/4A,FRET,Hepatitis C virus,-,GT1a,Ki,0.22 µM
CC[C@H](NC(=O)[C@H](CC(C)C)NC(=O)[C@@H](NC(=O)[C@@H](NC(=O)c1cnccn1)C(C)C)C(C)C)C(=O)C(=O)O,NS3 protease,-,Hepatitis C virus,-,-,Ki,1–100 µM
C=Cc1ccc(C(NC(=O)OC2CCCC2)C(=O)Nc2cccc(C(=O)NS(=O)(=O)c3ccc(C(F)(F)F)cc3)c2)cc1Oc1cc(OC)nc(-c2ccccc2)n1,Nonstructural protein 3/4A,FRET,Hepatitis C virus,-,GT1a,Ki,0.072 µM
O=C(O)c1nc(-c2cccc(CSc3ccncc3)c2)[nH]c(=O)c1O,HCV polymerase,-,Hepatitis C virus,-,-,IC50,<100 µM
C=Cc1ccc(C(N)C(=O)Nc2cccc(C(=O)NS(=O)(=O)c3ccc(C(F)(F)F)cc3)c2)cc1Oc1cc(OC)nc(-c2ccccc2)n1,Nonstructural protein 3/4A,FRET,Hepatitis C virus,-,GT1a,Ki,1.2 µM
COc1cc(C(=O)N2[C@@H](c3cccs3)[C@@H](c3noc(C)n3)C[C@@]2(CC(C)C)C(=O)O)ccc1C(C)(C)C,RNA-dependent RNA polymerase,-,Hepatitis C virus,-,-,IC50,<50 µM
CSc1ncc(C(=O)N(C)CCO)c(Nc2ccc3cn[nH]c3c2)n1,Reverse transcription,-,Hepatitis B virus,-,-,IC50,~0.1 µg/mL
COc1cc(C(=O)N2[C@@H](c3nccs3)[C@@H](c3noc(C)n3)C[C@@]2(CC(C)C)C(=O)O)ccc1C(C)(C)C,RNA-dependent RNA polymerase,-,Hepatitis C virus,-,-,IC50,<50 µM
CC[C@@H](C=O)NC(=O)[C@@H]1C[C@@H](OCc2ccccc2)CN1C(=O)[C@@H](NC(=O)Cc1csc(N)n1)C(C)C,NS3 protease,-,Hepatitis C virus,-,-,Ki,1–100 µM
NCc1ccc(-c2ccc(Cc3cc(=O)n(O)c4ncccc34)cc2)cc1,RNase H,RNase H / substrate cleavage,Hepatitis B virus,10 µM,gtH,inhibition,<24%
CC[C@@H](C=O)NC(=O)[C@@H]1C[C@@H](OCc2ccccc2)CN1C(=O)[C@@H](NC(=O)COc1ccccc1C=O)C(C)C,NS3 protease,-,Hepatitis C virus,-,-,Ki,>100 µM
O=C(O)c1cnn2c(C3CCCCC3)c(-c3ccc(OCc4ccccc4)c(F)c3)cnc12,RNA-dependent RNA polymerase,-,Hepatitis C virus,-,-,IC50,1–10 µM
CC[C@@H](C=O)NC(=O)[C@@H]1C[C@@H](OCc2ccccc2)CN1C(=O)[C@@H](NC(=O)[C@H](Cc1ccc(O)cc1)NC(=O)c1cnccn1)C(C)C,NS3 protease,-,Hepatitis C virus,-,-,Ki,1–100 µM
O=C(Nc1ccccc1-c1nc(C(=O)O)c(O)c(=O)[nH]1)NC1CCCCC1,HCV polymerase,-,Hepatitis C virus,-,-,IC50,<100 µM
O=C(O)C[C@H](NC(=O)c1cnn2c(C3CCCCC3)cc(-c3ccc(F)cc3F)nc12)c1ccccc1,RNA-dependent RNA polymerase,-,Hepatitis C virus,-,-,IC50,1–10 µM
CC[C@@H](C=O)NC(=O)[C@@H]1C[C@@H](NC(=O)Cc2ccccc2)CN1C(=O)[C@@H](NC(=O)[C@@H](NC(=O)c1cnccn1)C(C)C)C(C)C,NS3 protease,-,Hepatitis C virus,-,-,Ki,1–100 µM
O=C(Nc1ccc2[nH]ncc2c1)c1cc(NCCc2ccccn2)c(F)cc1F,Reverse transcriptase,-,Hepatitis B virus,-,-,IC50,0.1–1 µg/mL
CNC(=O)c1cnc(SC)nc1Nc1ccc2[nH]ncc2c1,Reverse transcription,-,Hepatitis B virus,-,-,IC50,<0.1 µg/mL
COc1cc(C(=O)N2[C@@H](c3nccs3)[C@H](c3noc(C4CC4)n3)C[C@@]2(CC(C)C)C(=O)O)ccc1C(C)(C)C,RNA-dependent RNA polymerase,-,Hepatitis C virus,-,-,IC50,<50 µM
CCNC(=O)c1cnc(SC)nc1Nc1ccc2[nH]ncc2c1,Reverse transcription,-,Hepatitis B virus,-,-,IC50,~0.1 µg/mL
CCN(CCO)c1cc(C(=O)Nc2ccc3cn[nH]c3c2)c(F)cc1F,Reverse transcriptase,-,Hepatitis B virus,0.1 µg/mL,-,inhibition,56%
FC(F)(F)c1cc(C(F)(F)F)c2ccc3ncc(-c4cccs4)n3c2n1,Envelope glycoprotein 2,luciferase / reporter gene,Hepatitis C virus,-,JFH-1,IC50,8.2 µM
O=C(Nc1ccc2[nH]ncc2c1)c1cc(NCCN2CCCC2)c(F)cc1F,Reverse transcriptase,-,Hepatitis B virus,-,-,IC50,0.01–0.1 µg/mL
CC(=O)Nc1cnn2c(C3CCCCC3)c(-c3ccc(OCc4ccccc4)cc3)cnc12,RNA-dependent RNA polymerase,-,Hepatitis C virus,-,-,IC50,>10 µM
C=Cc1ccc(C(NC(=O)OC(C)(C)C)C(=O)Nc2ccc(C(=O)NS(=O)(=O)c3ccc(C(F)(F)F)cc3)cc2)cc1Oc1cc(OC)nc(-c2ccccc2)n1,Nonstructural protein 3/4A,FRET,Hepatitis C virus,-,GT1a,Ki,0.046 µM
CC(C)C[C@H](NC(=O)C(=O)OC(C)(C)C)C(=O)N1C[C@@H](n2cc(-c3ccccc3)nn2)C[C@H]1C(=O)N[C@H](Cc1ccccc1)C(=O)NS(=O)(=O)C1CC1,Nonstructural protein 3/4A,FRET,Hepatitis C virus,-,-,IC50,>100 µM
CC(C)CNc1cc(C(=O)Nc2ccc3cn[nH]c3c2)c(F)cc1F,Reverse transcriptase,-,Hepatitis B virus,0.1 µg/mL,-,inhibition,30%
C=C[C@@H]1C[C@]1(NC(=O)[C@@H]1C[C@@H]2CN1C(=O)[C@H](C(C)(C)C)NC(=O)OCC(C)(C)CCCCc1cccc3c1CN(C3)C(=O)O2)C(=O)NS(=O)(=O)c1ccc2c(c1)B(O)OC2,HCV NS3 1a,FRET,Hepatitis C virus,-,-,IC50,0.004 µM
O=C(Nc1ccc2cn[nH]c2c1)c1cc(NCCc2ccccn2)c(F)cc1F,Reverse transcriptase,-,Hepatitis B virus,0.1 µg/mL,-,inhibition,38%
O=C(Nc1ccsc1-c1nc(C(=O)O)c(O)c(=O)[nH]1)OCc1cccc(CCc2ccccc2)c1,HCV polymerase,-,Hepatitis C virus,-,-,IC50,<25 µM
O=C(Nc1ccc2[nH]ncc2c1)c1cc(NCCN2CCOCC2)c(F)cc1F,Reverse transcriptase,-,Hepatitis B virus,0.01 µg/mL,-,inhibition,45%
CSc1ncc(C(=O)NCCCn2ccnc2)c(Nc2ccc3cn[nH]c3c2)n1,Reverse transcription,-,Hepatitis B virus,-,-,IC50,<0.1 µg/mL
O=C(Nc1ccc2cn[nH]c2c1)c1cc(NCCCn2ccnc2)c(F)cc1F,Reverse transcriptase,-,Hepatitis B virus,1 µg/mL,-,inhibition,69%
COc1cc(C(=O)N2[C@@H](c3nccs3)[C@H](c3nnc(C)o3)C[C@@]2(CC(C)C)C(=O)O)ccc1C(C)(C)C,RNA-dependent RNA polymerase,-,Hepatitis C virus,-,-,IC50,<50 µM

ICn is the concentration giving n% inhibition. An empty or dashed field is not shown. Percent inhibition refers to the dose given; in toxicity tests it is the harm to the cells. Rows are shuffled and stem from different studies.